A mixed list of measured activities; the numbers were collected in NIAID ChemDB.

Common to all: whole-cell or culture tests; organism: Human cytomegalovirus; endpoint: EC50

ECn: concentration that inhibits the pathogen or its effect by n%. Lines come from different laboratories, so protocols vary. An empty or dashed field is not shown.

structure	cell line	strain	method	result
Nc1nc2c(ncn2COC(CO)CO)c(=O)[nH]1	MRC-5	AD169	plaque count	1.2 µM
NC(=O)c1ncn([C@@H]2O[C@H](CO)[C@@H](O)[C@H]2O)n1	HEL	DAVIS (100 PFU)	cytopathic effect	>100 µg/mL
CCCNc1nc2c(Cl)cc(Cl)cc2n1[C@@H]1O[C@H](CO)[C@@H](O)[C@H]1O	MRC-5	-	-	0.15 µM
O=C([O-])CN(CCN(CC(=O)[O-])CC(=O)[O-])CCN(CC(=O)[O-])CC(=O)[O-].[Ca+2].[Na+].[Na+].[Na+]	HEL	AD169	plaque count	4.53 µg/mL
C[C@H]1[C@@H](OC(=O)CCC(=O)O)O[C@@H]2O[C@@]3(C)CC[C@H]4[C@H](C)CC[C@@H]1[C@@]24OO3	MRC-5	P	plaque count	1.26 µM
CN(C)c1cccc2c(S(=O)(=O)Nc3ccc(NC(=O)C(C)(C)CO)cc3)cccc12	-	-	-	0.27 µM
O=C(O)C[C@H](NCCN[C@@H](CC(=O)O)C(=O)O)C(=O)O	HEL	DER530 (GCV HPMPC-resistant)	plaque count	7.4 µg/mL
C[C@@H](O)C1=C[C@@H](n2cnc3c(N)ncnc32)[C@H](O)[C@@H]1O	HEL	AD-169 (100 PFU)	cytopathic effect	1.35 µg/mL
CCCCCCCCCCCCCCCCCCOC[C@H](COP(=O)(O)C(=O)O)OCc1ccccc1	MRC-5	AD169	-	0.64 µM
Nc1nc2c(ncn2COC(CO)CO)c(=O)[nH]1	HEL	LY9990 (ganciclovir-resistant)	plaque count	≥26.2 µg/mL
Nc1ncnc2c1ncn2[C@@H]1C=C[C@@H](O)[C@H]1O	HEL	DAVIS (20 PFU)	plaque count	1.7 µg/mL
NC(=O)c1c(Cl)c(-c2cccnc2)n2c1C(O)CCC2	MRC-5	AD169	plaque count	0.02 µM
Nc1nccc2c1ncn2[C@@H]1O[C@H](CO)[C@@H](O)[C@H]1O	HEL	AD-169 (20 PFU)	plaque count	2.4 µg/mL
Nc1ncc2ncn(CO[C@@H]3CCP(=O)(O)OC3)c2n1	-	AD169	-	6.7 µg/mL
O=C(NCCc1c[nH]c2ccccc12)C1=Cc2ccncc2CC1	MRC-5	D16	plaque count	1.6 µM
Nc1ncnc2c1ncn2[C@@H]1C[C@H](CO)[C@@H](O)[C@H]1O	HEL	DAVIS (100 PFU)	cytopathic effect	>100 µg/mL

Repeating the first 2 entries:

structure	cell line	strain	method	result
Nc1nc2c(ncn2COC(CO)CO)c(=O)[nH]1	MRC-5	AD169	plaque count	1.2 µM
NC(=O)c1ncn([C@@H]2O[C@H](CO)[C@@H](O)[C@H]2O)n1	HEL	DAVIS (100 PFU)	cytopathic effect	>100 µg/mL